# Reference: patent US12122786B2, “Inhibitors of cyclic mono- and di-nucleotide phosphodiesterases and the uses thereof” (priority 2020, dated 2024)
# Amino acid sequences for entries named in this document (tags omitted).
# UniProt P71615, whole entry: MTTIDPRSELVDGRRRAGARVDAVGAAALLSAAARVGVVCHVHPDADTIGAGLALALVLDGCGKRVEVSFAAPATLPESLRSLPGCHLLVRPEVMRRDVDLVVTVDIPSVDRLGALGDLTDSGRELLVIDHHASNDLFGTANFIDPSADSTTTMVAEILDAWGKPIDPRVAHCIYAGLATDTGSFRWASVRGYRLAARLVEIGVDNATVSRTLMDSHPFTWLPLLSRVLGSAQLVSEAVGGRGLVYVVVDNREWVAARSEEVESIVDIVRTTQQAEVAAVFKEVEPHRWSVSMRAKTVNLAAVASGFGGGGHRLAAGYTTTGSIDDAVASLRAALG
# Molecular target: T1, MTB CdnP (Mycobacterium tuberculosis, UniProt P71615)
# Experiment: Radioisotope thin layer chromatography (TLC) of c-di-AMP cleavage by MTB CdnP
# Conditions: 20 μM concentration, 0.5 μM MTB CdnP, 1 h at 37° C.
row,SMILES,inhibitory effect on c-di-AMP hydrolysis by MTB CdnP (TLC) at 20 μM
1,CN(C)c1nc(-c2cccnc2)nc2c1CCN(C(=O)c1cccc(O)c1)C2,very little inhibitory effect
2,Cc1ccc(C)c(NC(=O)Cn2cnc3ccccc3c2=O)c1,did not show any inhibitory effect

# Same assay, conditions: 20 to 150 μM inhibitor, 0.5 μM MTB CdnP, 1 h at 37° C.
row,SMILES,"inhibition of c-di-AMP hydrolysis by MTB CdnP (TLC), varying inhibitor concentrations"
1,CN(C)c1nc(-c2cccnc2)nc2c1CCN(C(=O)c1cccc(O)c1)C2,least potent compounds
2,Cc1ccc(C)c(NC(=O)Cn2cnc3ccccc3c2=O)c1,least potent compounds

# Molecular target: T1, MTB CdnP
# Experiment: IC50 determination of MTB CdnP inhibition, coralyne assay
# Conditions: read-out: IC50 of MTB CdnP enzymatic activity inhibition, 50 nM MTB CdnP and 80 μM c-di-AMP
row,SMILES,IC50 [µM]
1,CN(C)c1nc(-c2cccnc2)nc2c1CCN(C(=O)c1cccc(O)c1)C2,48.9
2,Cc1ccc(C)c(NC(=O)Cn2cnc3ccccc3c2=O)c1,34.6
3,Cc1ccc([N+](=O)[O-])cc1NC(=O)Cn1cnc2ccccc2c1=O,24.5
4,Cc1ccc(Cl)cc1NC(=O)Cn1cnc2ccccc2c1=O,> 60
5,COc1ccc(Cl)cc1NC(=O)Cn1cnc2sc3c(c2c1=O)CCC(C)C3 (stereo not shown),21.4

# Molecular target: T1, MTB CdnP
# Experiment: HPLC analysis of c-di-AMP cleavage by MTB CdnP
# Conditions: 20 μM compound, 100 nM MTB CdnP, 70 μM c-di-AMP, 37° C.
row,SMILES,"inhibition of c-di-AMP cleavage by MTB CdnP (HPLC), 3 h incubation"
1,CN(C)c1nc(-c2cccnc2)nc2c1CCN(C(=O)c1cccc(O)c1)C2,did not show any activity
2,Cc1ccc(C)c(NC(=O)Cn2cnc3ccccc3c2=O)c1,lower enzymatic inhibition
3,Cc1ccc([N+](=O)[O-])cc1NC(=O)Cn1cnc2ccccc2c1=O,most potent inhibitory effects
4,Cc1ccc(Cl)cc1NC(=O)Cn1cnc2ccccc2c1=O,most potent inhibitory effects
